Anti-infective test results gathered from many reports (values: NIAID ChemDB through PubChem).

All rows: growth or infection tests; agent: HIV-1; cells: MT-4; endpoint: EC50

Neighbouring rows are from separate reports. An empty or dashed field is not shown. ECn: concentration that inhibits the pathogen or its effect by n%.

smiles	strain	changes	read by	setting	result
Cc1cc(C)c(-n2nnnc2SCC(=O)Nc2ccccc2Br)c(C)c1	-	-	p24	10% FBS	<0.1 µM
c1cc(CN2CCCNCCNCCCNCC2)ccc1CN1CCCNCCNCCCNCC1	RF	-	cytopathic effect / MTT	-	0.02 µM
COc1ccc(S(=O)(=O)N(CC(C)C)C[C@@H](O)[C@H](Cc2ccccc2)NC(=O)O[C@H]2CO[C@@H]3O[C@H]4OCC[C@H]4[C@@H]32)cc1	NL4-3	L23I E43Q K43I M46I I50L G51A L63P A71V V82A T91A	p24 / luminescence	-	0.3769 µM
CN[C@H]1CO[C@@H]2OCC[C@H](OC(=O)N[C@@H](Cc3ccccc3)[C@H](O)CN(CC(C)C)S(=O)(=O)c3ccc4nc(NC5CC5)sc4c3)[C@@H]21	NL4-3	L10I I15V K20R L24I V32I M36I M46I I54V I62V L63P K70Q V82A L88M	p24 / luminescence	-	0.0021 µM
NC(N)=NCCC[C@H](N)C(=O)NC[C@H]1O[C@H](O[C@H]2C(O)[C@@H](O[C@H]3O[C@H](CO)[C@@H](O)[C@H](NC(=O)[C@@H](N)CCCN=C(N)N)[C@H]3O)[C@H](NC(=O)[C@@H](N)CCCN=C(N)N)C[C@@H]2NC(=O)[C@@H](N)CCCN=C(N)N)[C@H](O)[C@@H](O)[C@@H]1O	RF	-	cytopathic effect / MTT	-	>113 µM
Nc1nc(NC2CCCC2)c2ncn(CCOCP(=O)(O)O)c2n1	IIIB	-	cytopathic effect / MTT	-	>0.8 µg/mL
CNC(=O)[C@@H](NC(=O)[C@H](OCc1ccc(-c2cccs2)cc1)[C@H](O)[C@@H](O)[C@@H](OCc1ccc(-c2cccs2)cc1)C(=O)N[C@H](C(=O)NC)C(C)C)C(C)C	-	-	cytopathic effect / XTT	-	0.02 µM
COC(=O)N[C@H](C(=O)N[C@@H](Cc1ccccc1)[C@@H](O)CN(Cc1ccc(-c2ccccn2)cc1)NC(=O)[C@@H](NC(=O)OC)C(C)(C)C)C(C)(C)C	NL4-3	L23I E34Q K43I M46I I50L G51A L63P A71V V82A T91A	p24 / luminescence	-	>1 µM
Cc1c(Cl)cccc1-n1nnnc1SCC(=O)Nc1ccccc1[N+](=O)[O-]	-	-	p24	50% human serum	<0.031 µM
COC(=O)N[C@H](C(=O)N[C@@H](Cc1ccccc1)[C@@H](O)CN(Cc1ccc(-c2ccccn2)cc1)NC(=O)[C@@H](NC(=O)OC)C(C)(C)C)C(C)(C)C	NL4-3	L10F M46I I54V V82A	p24 / luminescence	-	0.0351 µM
CNC(=O)[C@@H](NC(=O)[C@H](OCc1ccccc1)[C@H](O)[C@@H](O)[C@@H](OCc1ccccc1)C(=O)N[C@H](C(=O)NC)c1ccccc1)c1ccccc1	-	-	cytopathic effect / XTT	-	1 µM
NS(=O)(=O)c1ccc(NC(=O)CSc2nnnn2-c2cc(Cl)ccc2Cl)c(Cl)c1	-	-	p24	10% FBS	<0.016 µM
CC(C)CN(C[C@@H](O)[C@H](Cc1ccccc1)NC(=O)O[C@H]1CCO[C@H]2OCC[C@H]21)S(=O)(=O)c1ccc2nc(NC3CC3)sc2c1	NL4-3	L10I I15V K20R L24I V32I M36I M46I L63P K70Q V82A I84V L89M	p24 / luminescence	-	0.064 µM
CNC(=O)[C@@H](NC(=O)[C@H](OCc1ccc(C2=C(O)C(=O)CCC2)cc1)[C@H](O)[C@@H](O)[C@@H](OCc1ccc(C2=C(O)C(=O)CCC2)cc1)C(=O)N[C@H](C(=O)NC)C(C)C)C(C)C	-	-	cytopathic effect / XTT	-	0.2 µM
CC(C)CN(C[C@@H](O)[C@H](Cc1ccccc1)NC(=O)O[C@H]1CCOC1)S(=O)(=O)c1ccc(N)cc1	NL4-3	-	p24 / luminescence	-	0.0249 µM
CCN[C@H]1CO[C@@H]2OCC[C@H](OC(=O)N[C@@H](Cc3cccc(OC)c3)[C@H](O)CN(CC(C)C)S(=O)(=O)c3ccc4nc(NC(C)C)sc4c3)[C@@H]21	NL4-3	L10F M46I I54V V82A	p24 / luminescence	-	0.035 µM
Nc1ncnc2c1ncn2CCOCP(=O)(O)O	IIIB	-	cytopathic effect / MTT	-	>4 µg/mL
CCN[C@H]1CO[C@@H]2OCC[C@H](OC(=O)N[C@@H](Cc3ccccc3)[C@H](O)CN(CC(C)C)S(=O)(=O)c3ccc4nc(NC5CC5)sc4c3)[C@@H]21	NL4-3	L10I N37D G48V I54V L63P G73C I84V L90M	p24 / luminescence	-	0.0044 µM
CC(C)(C)NC(=O)[C@@H]1C[C@@H]2CCCC[C@@H]2CN1C[C@@H](O)[C@H](Cc1ccccc1)NC(=O)[C@H](CC(N)=O)NC(=O)c1ccc2ccccc2n1	NL4-3	-	cytopathic effect / MTT	-	0.009 µg/mL
Cc1cc(C)c(-n2nnnc2SCC(=O)Nc2ccc(OCCCN(C)C)cc2Cl)c(C)c1	-	-	p24	50% human serum	<0.2 µM
CN(C)CCCNc1nc(N)nc2c1ncn2CCOCP(=O)(O)O	IIIB	-	cytopathic effect / MTT	-	6.12 µg/mL
CNC(=O)[C@@H](NC(=O)[C@H](OCc1ccccc1F)[C@H](O)[C@@H](O)[C@@H](OCc1ccccc1F)C(=O)N[C@H](C(=O)NC)C(C)C)C(C)C	-	-	cytopathic effect / XTT	-	0.8 µM
C[C@H](CC1CNC2C(N)=NC(N)NC12)OCP(=O)(O)O	IIIB	-	cytopathic effect / MTT	-	36.9 ± 5.7 µg/mL
O=C(NCc1c(F)cccc1Cl)C(OCc1ccccc1F)C(O)C(O)[C@@H](OCc1ccccc1F)C(=O)N[C@H]1c2ccccc2CC1O	-	-	cytopathic effect / XTT	-	0.8 µM

Again, the opening 3 rows:

smiles	strain	changes	read by	setting	result
Cc1cc(C)c(-n2nnnc2SCC(=O)Nc2ccccc2Br)c(C)c1	-	-	p24	10% FBS	<0.1 µM
c1cc(CN2CCCNCCNCCCNCC2)ccc1CN1CCCNCCNCCCNCC1	RF	-	cytopathic effect / MTT	-	0.02 µM
COc1ccc(S(=O)(=O)N(CC(C)C)C[C@@H](O)[C@H](Cc2ccccc2)NC(=O)O[C@H]2CO[C@@H]3O[C@H]4OCC[C@H]4[C@@H]32)cc1	NL4-3	L23I E43Q K43I M46I I50L G51A L63P A71V V82A T91A	p24 / luminescence	-	0.3769 µM